Results of unrelated studies side by side (data: NIAID ChemDB).

All rows: whole-cell or culture tests

a–b is a range or a potency band. Zones are inhibition diameters on agar. A number after MIC or MFC names an inhibition level or a share of isolates. Lines come from different laboratories, so protocols vary. ECn is the concentration giving n% inhibition of infection, replication or growth. Percent inhibition refers to the dose given; in toxicity tests it is the harm to the cells. Fold resistance: result on the changed form divided by that on wild type.

CC(=O)ONc1ccc(S(=O)(=O)N(Cc2ccccc2)C[C@@H](O)[C@H](Cc2ccccc2)NC(=O)CN2C(=O)c3ccccc3C2=O)cc1 ; species: SIV ; cell line: CEM ; method: MTT ; endpoint: EC50 ; value: 4.6 µM
CN[C@H]1C[C@@H](n2cnc3c(N)ncnc32)[C@H](O)[C@@H]1O ; species: West Nile virus ; cell line: HFF ; endpoint: EC50 ; value: >100 µg/mL
Cc1cc(OCCCc2ccc(CO)nn2)cc(C)c1-c1noc(C(F)(F)F)n1 ; species: Enterovirus ; cell line: HeLa ; method: cytopathic effect ; endpoint: EC50 ; value: 0.033–0.659 µg/mL
CC(C)(C)c1ccc(CSc2ncnc3c2ncn3[C@@H]2O[C@H](CO)[C@@H](O)[C@H]2O)cc1 ; species: Toxoplasma gondii ; strain or isolate: RH adenosine kinase-deficient ; endpoint: inhibition ; dose: 50 µM ; value: 0.1%
O=C1C(c2[nH]c3ccc(S(=O)(=O)O)cc3c2O)=Nc2ccc(S(=O)(=O)O)cc21 ; species: Rhinovirus ; cell line: Human amnion AV3 cells ; method: cytopathic effect ; endpoint: inhibition ; dose: 5 µg/mL ; value: 0%
CO/N=C1\CN(c2nc3c(cc2F)c(=O)c(C(=O)O)cn3C2CC2)CC1CN ; species: Streptococcus pneumoniae ; strain or isolate: 19 isolates (penicillin-resistant) ; endpoint: MIC50 ; value: 0.016 µg/mL
O=C(NN=CC1C(c2ccccc2)=Nc2ccc(Cl)cc21)N1c2ccccc2C=Cc2ccccc21 ; species: Aspergillus oryzae ; strain or isolate: MTCC-3567 ; method: agar diffusion ; endpoint: zone ; dose: 750 µg/mL ; value: 11 mm
OC[C@H]1O[C@@H](n2cnc3c(SCc4ccc(Cl)cc4Cl)ncnc32)[C@H](O)[C@@H]1O ; species: Toxoplasma gondii ; strain or isolate: RH adenosine kinase-deficient ; endpoint: inhibition ; dose: 10 µM ; value: 0%
Cc1cc(-c2ccc(N=Nc3c(S(=O)(=O)O)cc4cc(S(=O)(=O)O)cc(N)c4c3O)c(C)c2)ccc1N=Nc1c(S(=O)(=O)O)cc2cc(S(=O)(=O)O)cc(N)c2c1O ; species: Adenovirus ; strain or isolate: TYPE 3 ; cell line: Human amnion AV3 cells ; method: cytopathic effect ; endpoint: inhibition ; dose: 5 µg/mL ; value: 0%
CC1CCC(C(=O)N(c2cc(C#CC(C)(C)C)sc2C(=O)O)C2CCC(O)CC2)CC1 ; species: Hepatitis C virus ; strain or isolate: Con1 (gt 1b) ; changes: V494A ; cell line: Huh7 ; method: luciferase ; endpoint: fold resistance ; value: 32.5
O=C(NN1C(=O)CSC1C1C(c2ccccc2)=Nc2ccccc21)N1c2ccccc2C=Cc2ccccc21 ; species: Aspergillus oryzae ; strain or isolate: MTCC-3567 ; method: agar diffusion ; endpoint: zone ; dose: 500 µg/mL ; value: 12 mm
Cc1ccc(CCCOc2c(C)cc(-c3noc(C(F)F)n3)cc2C)nn1 ; species: Enterovirus ; cell line: HeLa ; method: cytopathic effect ; endpoint: EC50 ; value: 0.033–0.659 µg/mL
CC(N)C12CC3CC(CC(C3)C1)C2 ; species: Influenza A virus ; strain or isolate: H3N2 A/LYON/5389/88 ; cell line: MDCK ; method: ELISA ; endpoint: EC50 ; value: 0.039 µg/mL
C=CCc1ccc(O)c(OC)c1 ; species: Candida tropicalis ; strain or isolate: 3240 ; method: turbidity ; endpoint: MIC90 ; value: 500 µg/mL
CC(C)C[C@@H](C(=O)N[C@@H](Cc1ccccc1)[C@H](O)CN(CC(C)C)S(=O)(=O)c1ccc(Br)cc1)N1C(=O)c2ccccc2C1=O ; species: SIV ; cell line: CEM ; method: MTT ; endpoint: EC50 ; value: 7.6 µM
Cc1cc(O/C=C/Cc2ccc(Cl)nn2)cc(C)c1-c1noc(C(F)(F)F)n1 ; species: Enterovirus ; cell line: HeLa ; method: cytopathic effect ; endpoint: EC50 ; value: 0.033–0.659 µg/mL
Cc1cn([C@@H]2O[C@H](CO)[C@@H](O)[C@@H]2O)c(=O)[nH]c1=O ; species: Varicella zoster virus ; strain or isolate: HIRAI ; cell line: HELF ; method: plaque count ; endpoint: inhibition ; dose: 0.1 µg/mL ; value: 75%
CC(=O)ONc1ccc(S(=O)(=O)N(CC(C)C)C[C@@H](O)[C@H](Cc2ccccc2)NC(=O)Cc2c[nH]c3ccccc23)cc1 ; species: SIV ; cell line: CEM ; method: MTT ; endpoint: EC50 ; value: 1 µM
N=C(N)c1ccc(N2CCN(c3ccccc3)CC2)cc1 ; species: Pneumocystis carinii ; endpoint: inhibition ; dose: 50 µg/mL ; value: 87%
O=c1[nH]c(=O)n([C@H]2C[C@H](O)[C@@H](CO)O2)cc1I ; species: Varicella zoster virus ; strain or isolate: Ohtomo ; cell line: HELF ; method: plaque count ; endpoint: inhibition ; dose: 10 µg/mL ; value: 100%
Nc1cccc(S(=O)(=O)O)c1 ; species: Rhinovirus ; cell line: Human embryonic lung cells ; method: cytopathic effect ; endpoint: inhibition ; dose: 50 µg/mL ; value: 0%
CCCc1ccc(CCCOc2cc(C)c(-c3noc(C4CC4)n3)c(C)c2)nn1 ; species: Enterovirus ; cell line: HeLa ; method: cytopathic effect ; endpoint: EC50 ; value: 0.033–0.659 µg/mL
CCNC(=O)[C@@H](NC(=O)Cc1ccccc1)[C@@H]1N[C@@H](C(=O)NCCNC(=O)[C@@H]2N[C@@H]([C@H](NC(=O)Cc3ccccc3)C(=O)NCC)SC2(C)C)C(C)(C)S1 ; species: Haemophilus influenzae ; strain or isolate: 434 strains ; endpoint: MIC50 ; value: 0.25 µg/mL
CCc1cn([C@@H]2O[C@H](CO)[C@@H](O)[C@@H]2O)c(=O)[nH]c1=O ; species: Varicella zoster virus ; strain or isolate: YS ; cell line: HELF ; method: plaque count ; endpoint: inhibition ; dose: 100 µg/mL ; value: 0%
CC(C)N=C(N)c1ccc(N2CCN(c3ccccc3)CC2)cc1 ; species: Pneumocystis carinii ; endpoint: inhibition ; dose: 10 µg/mL ; value: 90%
Nc1nc(=O)n([C@@H]2O[C@H](CO)[C@@H](O)[C@@H]2F)cc1I ; species: Varicella zoster virus ; strain or isolate: Asahikawa ; cell line: HELF ; method: plaque count ; endpoint: inhibition ; dose: 0.001 µg/mL ; value: 0%
O=C(Nc1c(S(=O)(=O)[O-])cc2cc(S(=O)(=O)[O-])cc(O)c2c1O)c1ccccc1 ; species: Adenovirus ; strain or isolate: TYPE 3 ; cell line: Human embryonic lung cells ; method: cytopathic effect ; endpoint: inhibition ; dose: 10 µg/mL ; value: 90%
CC[C@H]1OC(=O)[C@H](C)[C@@H](O[C@H]2C[C@@](C)(OC)[C@@H](O)[C@H](C)O2)[C@H](C)[C@@H](O[C@@H]2O[C@H](C)C[C@H](N(C)C)[C@H]2O)[C@](C)(O)C[C@@H](C)/C(=N\OCOCCOC)[C@H](C)[C@@H](O)[C@]1(C)O ; species: Streptococcus pneumoniae ; strain or isolate: 595 strains ; endpoint: MIC50 ; value: ≤0.25 µg/mL
CCc1ccc(CCCOc2ccc(-c3noc(C(F)F)n3)cc2)nn1 ; species: Enterovirus ; cell line: HeLa ; method: cytopathic effect ; endpoint: EC50 ; value: 0.033–0.659 µg/mL
CN[C@H]1CC[C@@H](c2ccc(Cl)c(Cl)c2)c2ccccc21 ; species: Cryptococcus neoformans ; strain or isolate: 3-10 ; method: broth dilution ; endpoint: MFC ; value: 10 µg/mL
CC(=O)c1ccc(CCCOc2c(C)cc(-c3noc(C(F)F)n3)cc2C)nn1 ; species: Enterovirus ; cell line: HeLa ; method: cytopathic effect ; endpoint: EC50 ; value: 0.033–0.659 µg/mL
O=C(NN1C(=O)CSC1C1C(c2ccccc2)=Nc2ccc(Cl)cc21)N1c2ccccc2C=Cc2ccccc21 ; species: Aspergillus terreus ; strain or isolate: MTCC-1782 ; method: agar diffusion ; endpoint: zone ; dose: 1000 µg/mL ; value: 14 mm
CCCCCCCN=C(N)c1ccc(N2CCN(c3ccccc3)CC2)cc1 ; species: Pneumocystis carinii ; endpoint: inhibition ; dose: 50 µg/mL ; value: 92%
COCC1=C(C(=O)O)N2C(=O)C(NC(=O)/C(=N/OC)c3csc(N)n3)C2SC1 ; species: Streptococcus pneumoniae ; strain or isolate: 595 strains ; endpoint: MIC90 ; value: 0.125 µg/mL
NC(=NCc1ccccc1)c1ccc(N2CCN(c3ccccc3)CC2)cc1 ; species: Pneumocystis carinii ; endpoint: inhibition ; dose: 0.1 µg/mL ; value: 0%
Nc1ccc2cc([N+](=O)[O-])cc(S(=O)(=O)[O-])c2c1 ; species: Adenovirus ; strain or isolate: TYPE 3 ; cell line: Human embryonic lung cells ; method: cytopathic effect ; endpoint: inhibition ; dose: 50 µg/mL ; value: 30%
COc1ccc(CCCOc2cc(C)c(-c3noc(C(F)(F)F)n3)c(C)c2)nn1 ; species: Enterovirus ; cell line: HeLa ; method: cytopathic effect ; endpoint: EC50 ; value: 0.033–0.659 µg/mL
CCCCCCCCCCCCN=C(N)c1ccc(N2CCN(c3ccccc3)CC2)cc1 ; species: Pneumocystis carinii ; endpoint: inhibition ; dose: 50 µg/mL ; value: 85%
CC(C)CN(C[C@@H](O)[C@H](Cc1ccccc1)NC(=O)[C@H](C)N1C(=O)c2ccccc2C1=O)S(=O)(=O)c1ccc(Br)cc1 ; species: SIV ; cell line: CEM ; method: MTT ; endpoint: EC50 ; value: 8.9 µM
C=Cc1cn([C@@H]2O[C@H](CO)[C@@H](O)[C@@H]2O)c(=O)[nH]c1=O ; species: Varicella zoster virus ; strain or isolate: KANNO ; cell line: HELF ; method: plaque count ; endpoint: inhibition ; dose: 0.1 µg/mL ; value: 92%
Cc1cc(OCCCc2ccc(I)nn2)cc(C)c1-c1noc(C(F)F)n1 ; species: Enterovirus ; cell line: HeLa ; method: cytopathic effect ; endpoint: EC50 ; value: 0.033–0.659 µg/mL
CC(C)N=C(N)c1ccc2nc(-c3ccc4c(c3)Cc3cc(-c5nc6ccc(C(N)=NC(C)C)cc6[nH]5)ccc3-4)[nH]c2c1 ; species: Candida albicans ; strain or isolate: Isolate CA2256 fluconazole-resistant ; endpoint: MFC ; value: 1.56 µg/mL